In data set [1] the test system is HRV-14. The experiment in a line: Antirhinoviral H1-HeLa cell culture assay (XTT), HRV-14. Format: cell-based, human rhinovirus. To be noted: therapeutic index CC50/EC50, HRV serotype-14. The procedure: (§1) Antirhinoviral H1-HeLa Cell Culture Assay
(§2) In this cell protection assay, the ability of compounds to protect cells against HRV infection was measured by the XTT dye reduction method, which is described in Weislow et al., J. Natl. Cancer Inst. 1989, vol. 81, 577-586.
(§3) H1-HeLa cells were infected with HRV-14 at a multiplicity of infection (m.o.i.) of 0.13 (virus particles/cell) or mock-infected with medium only. Infected or mock-infected cells were resuspended at 8×10^5 cells per mL, and incubated with appropriate concentrations of the compounds to be tested. Two days later, XTT/PMS was added to test plates and the amount of formazan produced was quantified spectrophotometrically at 450/650 nm. The EC50 value was calculated as the concentration of compound that increased the percentage of formazan production in compound-treated, virus-infected cells to 50% of that produced by compound-free, mock-infected cells. The 50% cytotoxic dose (CC50) was calculated as the concentration of compound that decreased the percentage of formazan produced in compound-treated, mock-infected cells to 50% of that produced by compound-free, mock-infected cells. The therapeutic index (TI) was calculated by dividing the CC50 value by the EC50 value.
(§4) All strains of human rhinovirus (HRV) for use in this assay were purchased from American Type Culture Collection (ATCC), except for HRV serotype-14 (produced from the infectious cDNA clone constructed by Dr. Robert Rueckert, Institute for Molecular Virology, University of Wisconsin, Madison, Wis.). HRV stocks were propagated and viral assays were performed in H1-HeLa cells (ATCC). Cells were grown in minimal essential medium with 10% fetal bovine serum, available from Life Technologies (Gaithersburg, Md.).
(§5) The compounds were tested against control compounds WIN 51711, WIN 52084, and WIN 54954 (obtained from Sterling-Winthrop Pharmaceuticals), Pirodavir (obtained from Janssen Pharmaceuticals), and Pleconaril (prepared according to the method described in Diana et al., J. Med. Chem 1995, vol. 38, 1355). Antiviral data obtained for the test compounds are shown in Tables 1 and 3, where all data are for HRV serotype-14 unless otherwise noted in parentheses.
(In general: Tetrazolium assays rely on reduction of a dye to a coloured formazan, in cell work by metabolically active cells.)

Data set [2] deals with HRV serotype 1A. The data set is described as follows: Antirhinoviral H1-HeLa cell culture assay (XTT), HRV-1A. It is filed as cell-based, human rhinovirus. To be noted: therapeutic index CC50/EC50, HRV (1A). As for the experimental part:
as §1, §2, §3, §4, §5

SMILES strings stand for the structures.

Consider `CCOC(=O)/C=C/[C@H](C[C@@H]1CCNC1=O)NC(=O)[C@@H](CC(=O)[C@@H](NC(=O)c1cc(C)on1)C(C)C)Cc1ccc(F)cc1` [(B-2), Ethyl-3-{(5′-Methylisoxazole-3′-carbonyl)-L-ValΨ(COCH2)-L-(4-F-Phe)-L-((S)-Pyrrol-Ala)}-E-Propenoate], for which the figures for the TI in data set [1] and in data set [2] were more than 20000 and more than 5000, respectively.

These data come from patent US6906198B1, “Antipicornaviral compounds, their preparation and use” (Agouron Pharmaceuticals, Inc., priority 1998, dated 2005).
